Measured values from several laboratories, pooled; numbers as filed in NIAID ChemDB.

Common to all: tests in culture; agent: Parainfluenza virus

ECn: concentration that inhibits the pathogen or its effect by n%.

{"structure": "c1ccc(C2=Nn3c(nnc3-c3cn(-c4ccccc4)nc3-c3ccccc3)SC2)cc1", "strain": "TYPE 3", "read by": "cytopathic effect", "cell line": "VERO", "endpoint": "EC50", "value": ">16 µg/mL"}
{"structure": "CNc1ncnc2c1cnn2Cc1cn(CCCCO)nn1", "strain": "TYPE 3", "cell line": "VERO", "endpoint": "EC50", "value": ">400 µg/mL"}
{"structure": "C1=CCC2(CC1)COC(c1ccco1)OC2", "strain": "HA-1/C243", "read by": "cytopathic effect", "cell line": "VERO", "endpoint": "EC50", "value": ">500 µg/mL"}
{"structure": "COc1ncnc2c1cnn2Cc1cn(CCCCO)nn1", "strain": "TYPE 3", "cell line": "VERO", "endpoint": "EC50", "value": "240 µg/mL"}
{"structure": "Cc1cn([C@@H]2O[C@H](CO)[C@](O)(C(F)(F)F)[C@H]2O)c(=O)[nH]c1=O", "strain": "TYPE 3", "read by": "cytopathic effect", "cell line": "VERO", "endpoint": "EC50", "value": ">200 µg/mL"}
{"structure": "OC[C@H]1CC(n2cnc3c(NC4CC4)ncnc32)C[C@@H]1CO", "strain": "TYPE 3", "cell line": "VERO", "endpoint": "EC50", "value": ">100 µg/mL"}
{"structure": "OCCCCn1cc(Cn2ncc3c(NCc4ccccc4)ncnc32)nn1", "strain": "TYPE 3", "cell line": "VERO", "endpoint": "EC50", "value": ">400 µg/mL"}
{"structure": "CC=NC(=N)c1nc(-c2ccc(C)cc2)n(COCCO)n1", "strain": "TYPE 3", "read by": "cytopathic effect", "cell line": "VERO", "endpoint": "EC50", "value": "70 µg/mL"}
{"structure": "Nc1ncnc2c1ncn2[C@@H]1O[C@H](C=NOCc2ccccc2)[C@@H](O)[C@H]1O", "strain": "TYPE 3", "read by": "cytopathic effect", "cell line": "VERO", "endpoint": "EC50", "value": ">100 µg/mL"}
{"structure": "CON1CCc2c([nH]c3ccccc23)[C@@H]1[C@@H](N)CSC", "strain": "TYPE 3", "read by": "cytopathic effect", "cell line": "VERO", "endpoint": "EC50", "value": ">40 µg/mL"}
{"structure": "CO[C@H](CO)[C@@H](O)CCn1cnc2c(=O)[nH]c(N)nc21", "strain": "TYPE 3", "read by": "cytopathic effect", "cell line": "VERO", "endpoint": "EC50", "value": ">400 µg/mL"}
{"structure": "Nc1ncnc2c1ncn2[C@@H]1C=C(CO)[C@@H](O)C1", "strain": "TYPE 3", "read by": "cytopathic effect", "cell line": "VERO", "endpoint": "EC50", "value": "40 µg/mL"}
{"structure": "CC=NC(=N)c1nc(-c2ccccc2)n(C/C=C/c2ccccc2)n1", "strain": "TYPE 3", "read by": "cytopathic effect", "cell line": "VERO", "endpoint": "EC50", "value": ">10 µg/mL"}
{"structure": "C=CCc1nc(C)n2c(=O)[nH]c(NC(C)=O)nc12", "strain": "TYPE 3", "read by": "cytopathic effect", "cell line": "VERO", "endpoint": "EC50", "value": ">200 µg/mL"}
{"structure": "NNC(=O)Cc1nc2n(n1)CCCCC2", "strain": "TYPE 3", "endpoint": "MIC", "value": "16 µg/mL"}
{"structure": "CCOC(=O)Sc1nnc(-c2cn(-c3ccccc3)nc2-c2ccccc2)n1N", "strain": "TYPE 3", "read by": "cytopathic effect", "cell line": "VERO", "endpoint": "EC50", "value": ">80 µg/mL"}
{"structure": "Nc1ncnc2c1ncn2[C@@H]1O[C@H](C=NO)[C@@H](O)[C@H]1O", "strain": "TYPE 3", "read by": "cytopathic effect", "cell line": "VERO", "endpoint": "EC50", "value": ">1 µg/mL"}
{"structure": "CC=NC(=N)c1nc(-c2cccc(C)c2)n(COCCO)n1", "strain": "TYPE 3", "read by": "cytopathic effect", "cell line": "VERO", "endpoint": "EC50", "value": "70 µg/mL"}
{"structure": "NC1CSCCN2CCc3c([nH]c4ccccc34)[C@H]12", "strain": "TYPE 3", "read by": "cytopathic effect", "cell line": "VERO", "endpoint": "EC50", "value": "7 µg/mL"}
{"structure": "O=C(Nn1c(-c2cn(-c3ccccc3)nc2-c2ccccc2)n[nH]c1=S)c1ccccc1", "strain": "TYPE 3", "read by": "cytopathic effect", "cell line": "VERO", "endpoint": "EC50", "value": ">16 µg/mL"}
{"structure": "NC1CCCON2CCc3c([nH]c4ccccc34)[C@H]12", "strain": "TYPE 3", "read by": "cytopathic effect", "cell line": "VERO", "endpoint": "EC50", "value": "4 µg/mL"}
{"structure": "Nc1ncnc2c1ncn2CC[C@H](O)CCO", "strain": "TYPE 3", "read by": "cytopathic effect", "cell line": "VERO", "endpoint": "EC50", "value": ">400 µg/mL"}
{"structure": "Nc1ncnc2c1ncn2C[C@H](O)CO", "strain": "TYPE 3", "read by": "cytopathic effect", "cell line": "VERO", "endpoint": "EC50", "value": "20 µg/mL"}
{"structure": "C[C@@]1(O)[C@@H](CO)O[C@@H](n2cnc3c(N)ncnc32)[C@@H]1O", "strain": "TYPE 3", "read by": "cytopathic effect", "cell line": "VERO", "endpoint": "EC50", "value": "40 µg/mL"}
{"structure": "CCCCCCCCCCCCCCCCO[C@H]1N([C@H]2C[C@H](N=[N+]=[N-])[C@@H](CO)O2)C(=O)NC(=O)[C@]1(C)Br", "strain": "HA-1/C243", "read by": "cytopathic effect", "cell line": "VERO", "endpoint": "EC50", "value": ">500 µg/mL"}
{"structure": "CC=NC(=N)c1nc(-c2ccc(OC)cc2)n(COCCO)n1", "strain": "TYPE 3", "read by": "cytopathic effect", "cell line": "VERO", "endpoint": "EC50", "value": "100 µg/mL"}
{"structure": "CC(=O)Nc1nc2c(CC(O)CO)ncn2c(=O)[nH]1", "strain": "TYPE 3", "read by": "cytopathic effect", "cell line": "VERO", "endpoint": "EC50", "value": ">200 µg/mL"}
{"structure": "COCC1=C[C@@H](n2cnc3c(N)ncnc32)[C@H](O)[C@@H]1O", "strain": "TYPE 3", "read by": "cytopathic effect", "cell line": "VERO", "endpoint": "EC50", "value": "70 µg/mL"}
{"structure": "Nc1ncnc2c1ncn2[C@@H]1O[C@H](/C=N/O)C[C@H]1O", "strain": "TYPE 3", "read by": "cytopathic effect", "cell line": "VERO", "endpoint": "EC50", "value": ">400 µg/mL"}
{"structure": "Nc1nccc2c1ncn2[C@@H]1C=C(CO)[C@@H](O)[C@H]1O", "strain": "TYPE 3", "endpoint": "MIC", "value": "0.2 µg/mL"}
{"structure": "Nn1c(-c2cn(-c3ccccc3)nc2-c2ccccc2)n[nH]c1=S", "strain": "TYPE 3", "read by": "cytopathic effect", "cell line": "VERO", "endpoint": "EC50", "value": ">16 µg/mL"}
{"structure": "CCn1nc(-c2ccc(Cn3ccc4ccccc43)cc2)nc1C", "strain": "TYPE 3", "endpoint": "MIC", "value": ">80 µg/mL"}
{"structure": "Cc1cn([C@H]2OC[C@@H](CO)C2F)c(=O)[nH]c1=O", "strain": "TYPE 3", "read by": "cytopathic effect", "cell line": "VERO", "endpoint": "EC50", "value": ">80 µg/mL"}
{"structure": "Nc1nccc2c1ncn2[C@@H]1C[C@H](CO)[C@@H](O)[C@H]1O", "strain": "TYPE 3", "read by": "cytopathic effect", "cell line": "VERO", "endpoint": "EC50", "value": "0.7 µg/mL"}
{"structure": "Cc1nc(CC(=O)NN)nn1C", "strain": "TYPE 3", "endpoint": "MIC", "value": ">80 µg/mL"}
{"structure": "Nn1c(SCC(=O)O)nnc1-c1cn(-c2ccccc2)nc1-c1ccccc1", "strain": "TYPE 3", "read by": "cytopathic effect", "cell line": "VERO", "endpoint": "EC50", "value": ">80 µg/mL"}
{"structure": "Cc1cn([C@@H]2O[C@@H](CO)[C@H](O)[C@H]2O)c(=O)[nH]c1=O", "strain": "TYPE 3", "read by": "cytopathic effect", "cell line": "VERO B", "endpoint": "EC50", "value": ">1000 µM"}
{"structure": "Cc1cn(CCCC(O)CF)c(=O)[nH]c1=O", "strain": "TYPE 3", "read by": "cytopathic effect", "cell line": "VERO", "endpoint": "EC50", "value": ">400 µg/mL"}
{"structure": "O=c1ccn([C@@H]2C[C@H](CO)C[C@H]2CO)c(=O)[nH]1", "strain": "TYPE 3", "cell line": "VERO", "endpoint": "EC50", "value": ">100 µg/mL"}
{"structure": "CSCC1=C[C@@H](n2cnc3c(N)ncnc32)[C@H](O)[C@@H]1O", "strain": "TYPE 3", "read by": "cytopathic effect", "cell line": "VERO", "endpoint": "EC50", "value": ">200 µg/mL"}
{"structure": "Nc1ncnc2c1ncn2[C@H]1C[C@H](O)[C@@H](/C=N/O)O1", "strain": "TYPE 3", "read by": "cytopathic effect", "cell line": "VERO", "endpoint": "EC50", "value": ">100 µg/mL"}
{"structure": "Cc1nc(Cc2ccccc2)c2[nH]c(=S)[nH]c(=O)n12", "strain": "TYPE 3", "read by": "cytopathic effect", "cell line": "VERO", "endpoint": "EC50", "value": ">100 µg/mL"}
{"structure": "CN(C)C(=O)COC(=O)Cc1ccc(OC(=O)c2ccc(N=C(N)N)cc2)cc1.COS(=O)(=O)O", "strain": "HA-1/C243", "read by": "cytopathic effect", "cell line": "VERO", "endpoint": "EC50", "value": ">500 µg/mL"}
{"structure": "Nc1ccn([C@@H]2C[C@H](CO)[C@@H](O)[C@H]2O)c(=O)n1", "strain": "TYPE 3", "read by": "cytopathic effect", "cell line": "VERO", "endpoint": "EC50", "value": "6 µg/mL"}
{"structure": "Nc1ncnc2c1ncn2[C@@H]1O[C@@H](CO)[C@H](O)[C@H]1O", "strain": "TYPE 3", "read by": "cytopathic effect", "cell line": "VERO B", "endpoint": "EC50", "value": ">1000 µM"}
{"structure": "O=c1[nH]cnc2c1ncn2C1C[C@H](CO)[C@@H](CO)C1", "strain": "TYPE 3", "cell line": "VERO", "endpoint": "EC50", "value": ">100 µg/mL"}
{"structure": "Nc1nccc2c1ncn2[C@@H]1C=C[C@@H](O)[C@H]1O", "strain": "TYPE 3", "endpoint": "MIC", "value": "2 µg/mL"}
{"structure": "Cc1cn([C@@H]2OC[C@H](CO)[C@H]2N=[N+]=[N-])c(=O)[nH]c1=O", "strain": "TYPE 3", "read by": "cytopathic effect", "cell line": "VERO", "endpoint": "EC50", "value": ">80 µg/mL"}
{"structure": "OC[C@H]1O[C@@H](c2cc(Cl)c(F)cc2F)C[C@@H]1O", "strain": "TYPE 3", "read by": "cytopathic effect", "cell line": "VERO", "endpoint": "EC50", "value": ">80 µg/mL"}
{"structure": "CC(C)CS[C@@H]1C[C@H](n2cnc3c(N)ncnc32)[C@@H](O)[C@H]1O", "strain": "TYPE 3", "read by": "cytopathic effect", "cell line": "HeLa", "endpoint": "EC50", "value": ">80 µg/mL"}
{"structure": "CO[C@H](CO)[C@@H](O)CCn1cnc2c(N)ncnc21", "strain": "TYPE 3", "read by": "cytopathic effect", "cell line": "VERO", "endpoint": "EC50", "value": ">400 µg/mL"}
{"structure": "CCOC(=O)C1=CSc2nnc(-c3cn(-c4ccccc4)nc3-c3ccccc3)n2N=C1N", "strain": "TYPE 3", "read by": "cytopathic effect", "cell line": "VERO", "endpoint": "EC50", "value": ">16 µg/mL"}
{"structure": "Nc1ncnc2c1ncn2[C@@H]1C=C(CO)[C@@H](O)[C@@H]1O", "strain": "TYPE 3", "read by": "cytopathic effect", "cell line": "VERO", "endpoint": "EC50", "value": "10 µg/mL"}
{"structure": "CSc1ncnc2c1ncn2[C@@H]1OC2COP(=O)(O)OC2[C@H]1O", "strain": "TYPE 3", "endpoint": "MIC", "value": "100 µg/mL"}
{"structure": "Nc1ncnc2c1ccn2[C@@H]1C[C@H](O)[C@@H](O)[C@H]1O", "strain": "TYPE 3", "cell line": "VERO", "endpoint": "EC50", "value": ">0.07 µg/mL"}
{"structure": "[N-]=[N+]=N[C@H]1[C@@H](F)[C@H](N2C=CC(N)NC2=O)O[C@@H]1CO", "strain": "TYPE 3", "read by": "cytopathic effect", "cell line": "VERO B", "endpoint": "EC50", "value": ">400 µg/mL"}
{"structure": "Nc1ncnc2c1ncn2[C@H]1C[C@@H](O)[C@H](CO)O1", "strain": "TYPE 3", "read by": "cytopathic effect", "cell line": "VERO B", "endpoint": "EC50", "value": ">1000 µM"}
{"structure": "N#Cc1cc(NC(=O)c2ccccc2)c(=O)n2c1[nH]c1ccccc12", "strain": "C243 (TYPE 3)", "read by": "plaque count", "cell line": "VERO", "endpoint": "EC50", "value": "0.3 µg/mL"}
{"structure": "Nc1ncnc2c1ncn2CCCC(O)CF", "strain": "TYPE 3", "read by": "cytopathic effect", "cell line": "VERO", "endpoint": "EC50", "value": ">400 µg/mL"}
{"structure": "N#Cc1cc(C#N)c2[nH]c3ccccc3n2c1=O", "strain": "C243 (TYPE 3)", "read by": "plaque count", "cell line": "VERO", "endpoint": "EC50", "value": "5.2 µg/mL"}
{"structure": "Nc1ccn([C@@H]2OC[C@H](CO)[C@H]2O)c(=O)n1", "strain": "TYPE 3", "read by": "cytopathic effect", "cell line": "VERO", "endpoint": "EC50", "value": ">80 µg/mL"}
{"structure": "CCOC(=O)c1cc(C#N)c2[nH]c3ccccc3n2c1=O", "strain": "TYPE 3", "read by": "plaque count", "cell line": "VERO", "endpoint": "EC50", "value": "150 µg/mL"}
{"structure": "Cc1cn(CC[C@H](O)CCO)c(=O)[nH]c1=O", "strain": "TYPE 3", "read by": "cytopathic effect", "cell line": "VERO", "endpoint": "EC50", "value": ">400 µg/mL"}

Rows are shuffled and stem from different studies.